Anti-infective test results gathered from many reports (values: NIAID ChemDB through PubChem).

All rows: target-level tests

Percent inhibition refers to the dose given; in toxicity tests it is the harm to the cells.

smiles	read-out	strain	changes	method	dose	target	organism	value
Fc1ccc(-c2cncc(NCc3ccco3)n2)c(F)c1	inhibition	-	-	-	1 µM	UL97 kinase	Cytomegalovirus	<50%
Nc1nc(N)c(CCCOc2ccc(NC(=O)c3cccc(S(=O)(=O)F)c3)cc2Cl)c(N)n1	IC50	TYPE II	-	-	-	Dihydrofolate reductase	Cryptosporidium parvum	20 µM
O=C(NCc1cccc(Cl)c1)c1cc2ccccc2cc1O	IC50	-	-	-	-	HCMV DNA polymerase	Human cytomegalovirus	>100 µM
CCCOc1ncnc2c1ncn2[C@@H]1O[C@H](CO)[C@@H](O)[C@@H]1O	Ki	OKA	-	-	-	Thymidine kinase	Varicella zoster virus	1200 µM
O=C(Nc1cccc(Cl)c1)c1cc2ccccc2cc1O	IC50	-	-	-	-	HCMV DNA polymerase	Human cytomegalovirus	>100 µM
C=C1/C=C(\C)[C@H](CC)OC(=O)[C@H](C)C(=O)C(O)(CO)C/C(OC)=C/[C@@H](C)C1	IC50	-	-	-	-	Inositol phosphorylceramide synthase	Cryptococcus neoformans	0.0038 µM
CC(=O)N[C@@H]1[C@@H](N=C(N)N)C=C(C(=O)O)O[C@H]1C(=O)C(C)C	IC50	AICHI N2	-	fluorescence	-	Influenza virus sialidases	Influenza A virus	0.025 µM
CN1CCN(c2ccc3c(=O)c(C(=O)O)cn(C4CC4)c3c2)CC1	IC50	-	-	-	-	DNA gyrase	Streptococcus pneumoniae	186 µg/mL
Cc1onc(-c2ccccc2Cl)c1C(=O)N[C@@H]1C(=O)N2[C@@H]1SC(C)(C)[C@@H]2C(=O)O	IC50	TB3	-	-	-	Beta-lactamase	Mycobacterium tuberculosis	1 µg/mL
Nc1ccn([C@@H]2CS[C@H](COP(=O)(O)OP(=O)(O)OP(=O)(O)O)O2)c(=O)n1	Ki	-	-	-	-	DNA polymerase	Duck hepatitis B virus	0.78 µM
O=S(=O)(c1cccc2cnccc12)N1CCNCC1	inhibition	-	-	nucleotide incorporation	0.16 µg/mL	Protein kinase C	-	23.8%
CSc1ccccc1-c1cncc(N2CCN(c3ccncc3)CC2)n1	inhibition	-	-	-	10 µM	UL97 kinase	Cytomegalovirus	>15%
O=c1c(O)cc([C@H]2Oc3cc(O)cc(O)c3C[C@H]2O)cc2c([C@H]3Oc4cc(O)cc(O)c4C[C@H]3O)cc(O)c(O)c12	IC50	-	-	ELISA	-	CXCR4	-	>20 µM
COc1ccc(OC)c(N(C)Cc2csc3nc(N)nc(N)c23)c1	inhibition	-	-	-	10 µM	DHFR	Pneumocystis carinii	<30%
Nc1ccn([C@@H]2CS[C@H](COP(=O)(O)OP(=O)(O)OP(=O)(O)O)O2)c(=O)n1	Ki	-	RT-K65R K103N Q151M	radiometric	-	Reverse transcriptase	HIV	0.364 µM
O=C(Nc1ccc(Cl)cc1)c1cc2cc(O)ccc2cc1O	IC50	-	-	-	-	HCMV DNA polymerase	Human cytomegalovirus	>40 µM
C[C@H]1NCc2cc(-c3c(F)cc4c(=O)c(C(=O)O)cn(C5CC5)c4c3OC(F)F)ccc21	IC50	-	-	-	-	Topoisomerase II	Streptococcus pneumoniae	0.234 µg/mL
COc1ccc(/C(C)=C\c2coc3nc(N)nc(N)c23)cc1OC	IC50	-	-	-	-	Dihydrofolate reductase	Toxoplasma gondii	27 µM
O=C(NCc1ccc([N+](=O)[O-])cc1)c1cc2cc(Br)ccc2c(Br)c1O	IC50	-	-	-	-	HCMV DNA polymerase	Human cytomegalovirus	10.6 µM
CC(C)c1ccc(-n2c(=O)sn(-c3ccc(SC(F)(F)F)cc3)c2=O)cc1	IC50	mc2155	-	HPLC	-	Alanine racemase	Mycobacterium smegmatis	>100 µM
Cn1cc(/C=C2/C(=O)N3C(C(=O)[O-])CSC23)nn1.[Na+]	IC50	TB3	-	-	-	Beta-lactamase	Mycobacterium tuberculosis	0.0003 µg/mL
COc1ccc(N2CCN(c3cncc(-c4ccsc4)n3)CC2)cc1OC	inhibition	-	-	-	1 µM	UL97 kinase	Cytomegalovirus	<50%
CCCCCCCCCCCCCCCCCC(=O)OC[C@@H](COP(=O)(O)OCCNCCO[C@@]1(C(=O)O)O[C@@H]([C@H](O)[C@H](O)CO)[C@H](NC(C)=O)[C@@H](O)[C@H]1F)OC(=O)CCCCCCCCCCCCCCCCC	IC50	H1N1 A/PR/8/34	-	-	-	Sialidase	Influenza A virus	62.5 µM
NNC(=O)c1ccncc1	inhibition	H37RV (INH 10 ug/mL-R)	-	-	1000 µM	NADH oxidase	Mycobacterium tuberculosis	0%
O=C(O[C@H]1Cc2c(O)cc(O)cc2O[C@@H]1c1cc(O)c(O)c(O)c1)c1cc(O)c(O)c(O)c1	inhibition	-	-	ELISA	20 µM	CXCR4	-	22%
O=C(NCc1ccccn1)c1cn2c(c(O)c1=O)C(=O)N(Cc1ccc(F)cc1)CC2	IC50	-	-	ELISA	-	Integrase	HIV-1	0.01–0.1 µM
C[C@H](NC(=O)OCc1ccccc1)C(=O)Nc1csc2c(=O)oc([C@H](C)NC(=O)OCc3ccccc3)nc12	IC50	-	-	HPLC	-	CMV protease	Cytomegalovirus	>10 µM
O=c1sn(-c2ccc([N+](=O)[O-])cc2Cl)c(=O)n1CC1CC1	IC50	H37Rv	-	HPLC	-	Alanine racemase	Mycobacterium tuberculosis	<0.03 µM
COc1cc(NCc2csc3nc(N)nc(N)c23)cc(OC)c1OC	IC50	-	-	-	-	DHFR	Pneumocystis carinii	>10 µM
NC1CCN(c2ccc3c(=O)c(C(=O)O)cn(C4CC4)c3c2Cl)C1	IC50	-	-	-	-	Topoisomerase II	Streptococcus pneumoniae	8.76 µg/mL
Cc1ccc(S(=O)(=O)N[C@@H](C)c2nc3ccsc3c(=O)o2)cc1	IC50	-	-	HPLC	-	CMV protease	Cytomegalovirus	>10 µM
O=C(O)Cc1cc(O)ccc1O	IC50	-	-	flow cytometry	-	CD4	-	2 µM
Cc1noc(C)c1-n1sc(=O)n(CC2CC2)c1=O	IC50	mc2155	-	HPLC	-	Alanine racemase	Mycobacterium smegmatis	>100 µM
CC(=O)c1ccccc1-c1cncc(N2CCN(c3cccc(Cl)c3)CC2)n1	IC50	-	-	-	-	UL97 kinase	Cytomegalovirus	<100 µM
CC(C)Oc1ncnc2c1ncn2[C@@H]1O[C@H](CO)[C@@H](O)[C@@H]1O	Ki	OKA	-	-	-	Thymidine kinase	Varicella zoster virus	>3000 µM
O=C1O[C@H]2C(O)O[C@@H]3COC(=O)c4cc(O)c(O)c(O)c4-c4c(cc(c(O)c4O)Oc4c(cc(O)c(O)c4O)C(=O)O[C@@H]4[C@@H](OC(=O)c5cc(O)c(O)c(O)c5)[C@@H]5OC(=O)c6cc(O)c(O)c(O)c6-c6c(cc7c(c6O)OC6C(O7)C1=CC(=O)C6(O)O)C(=O)OC[C@H]5O[C@H]4O)C(=O)O[C@H]3[C@@H]2OC(=O)c1cc(O)c(O)c(O)c1	inhibition	-	-	-	2.5 µg/mL	DNA polymerase	Epstein-Barr virus	37.2%
COc1ccc(OC)c(C(C)Cc2coc3nc(N)nc(N)c23)c1	IC50	-	-	-	-	Dihydrofolate reductase	Toxoplasma gondii	15 µM
OCCN1CCN(CCOc2ccc(-c3ccccc3)cc2)CC1	inhibition	-	-	-	2 µM	Oxidosqualene cyclase	Pneumocystis carinii	20%
COc1cc(/C(C)=C/c2coc3nc(N)nc(N)c23)cc(OC)c1OC	IC50	-	-	-	-	Dihydrofolate reductase	Toxoplasma gondii	25 µM
Nc1nc(N)c(-c2ccc(Cl)cc2)c(/C=C/c2ccc([N+](=O)[O-])cc2)n1	IC50	TYPE II	-	-	-	Dihydrofolate reductase	Cryptosporidium parvum	30 µM
O=c1sn(-c2ccc(F)c(Cl)c2)c(=O)n1C1Cc2ccccc2C1	IC50	mc2155	-	HPLC	-	Alanine racemase	Mycobacterium smegmatis	>100 µM
O=c1[nH]cnc2c1ncn2[C@@H]1O[C@H](CO)[C@@H](O)[C@H]1O	inhibition	-	-	-	1000 µM	DHPS	Pneumocystis carinii	0%
COc1ccccc1N1CCN(c2cncc(-c3ccc4ccccc4c3)n2)CC1	IC50	-	-	-	-	UL97 kinase	Cytomegalovirus	<10 µM
Nc1nc(N)c(N=C/C=C/c2ccc([N+](=O)[O-])cc2)c(-c2ccccc2)n1	IC50	TYPE I	-	-	-	Dihydrofolate reductase	Cryptosporidium parvum	>100 µM
CCc1cc(Nc2cc(=O)n(CCCO)c(=O)[nH]2)ccc1C	IC50	-	-	-	-	DNA polymerase	Staphylococcus aureus	0.3 µM
O=C(O[C@@H]1Cc2c(O)cc(O)cc2O[C@@H]1c1cc(O)c(O)c(O)c1)c1cc(O)c(O)c(O)c1	IC50	-	-	ELISA	-	CXCR4	-	>20 µM
O=C(O)c1cn(C2CC2)c2cc(N3CCNCC3)ccc2c1=O	IC50	-	-	-	-	Topoisomerase II	Streptococcus pneumoniae	30.4 µg/mL
O=c1sn(-c2ccccc2C(F)(F)F)c(=O)n1CC1CC1	IC50	H37Rv	-	HPLC	-	Alanine racemase	Mycobacterium tuberculosis	0.82 µM
N[C@H]1CSSC[C@@H](C(=O)O)NC(=O)CNC(=O)[C@H](Cc2c[nH]c3ccccc23)NC(=O)[C@@H]2CCCN2C(=O)[C@H](Cc2ccccc2)NC1=O	IC50	-	-	-	-	Polymerase	Respiratory syncytial virus	>150 µM
CCN(CC)C(=O)[C@@H]1C=C(C(=O)O)CC[C@H]1NC(C)=O	IC50	Victoria	-	fluorescence	-	Influenza virus sialidases	Influenza B virus	23 µM
COc1ccc2cc(O)c(C(=O)N[C@@H](C)c3ccc([N+](=O)[O-])cc3)cc2c1	IC50	-	-	-	-	HCMV DNA polymerase	Human cytomegalovirus	>100 µM
CC1c2nc(N)nc(N)c2CN1C(=O)c1ccccc1	IC50	TYPE II	-	-	-	Dihydrofolate reductase	Cryptosporidium parvum	>100 µM
C/C(=C/c1coc2nc(N)nc(N)c12)c1cccc2ccccc12	IC50	-	-	-	-	Dihydrofolate reductase	Toxoplasma gondii	0.3 µM
NC1CCN(c2nc3c(cc2F)c(=O)c(C(=O)O)cn3-c2ccc(F)cc2F)C1	IC50	J24 (quinolone- penicillin-sensitive)	-	-	-	DNA gyrase	Streptococcus pneumoniae	30.1 µg/mL
Cn1c2ccccc2c(=O)c2c(O)cccc21	inhibition	-	-	nucleotide incorporation	100 µg/mL	Protein kinase C	-	77.8 ± 12%
CCc1cc(Nc2cc(=O)n(CC3CCN(C(=O)c4ccc(C(F)(F)F)o4)CC3)c(=O)[nH]2)ccc1C	IC50	-	-	-	-	DNA polymerase	Staphylococcus aureus	0.03 µM
O=C1c2c(O)c(=O)c(NS(=O)(=O)Cc3ccccc3)cn2CCN1Cc1ccc(F)c(Cl)c1	IC50	-	-	ELISA	-	Integrase	HIV-1	<0.01 µM
O=C(O[C@@H]1O[C@@H]2COC(=O)c3cc4c(O)c(O)c3-c3c(cc(O)c(O)c3O)C(=O)O[C@H]2[C@H](OC(=O)c2cc(O)c(O)c(O)c2)[C@H]1OC(=O)c1cc(O)c(O)c(O)c1Oc1cc2c(c(O)c1O)-c1c(cc(O)c(O)c1O)C(=O)OC[C@H]1OC(O)[C@H](OC(=O)c3cc(O)c(O)c(O)c3O4)[C@@H](OC(=O)c3cc(O)c(O)c(O)c3)[C@@H]1OC2=O)c1cc(O)c(O)c(O)c1	inhibition	-	-	-	5 µg/mL	DNA polymerase	Epstein-Barr virus	47.5%
CC(=O)C(=O)Nc1cn2ccn(Cc3cccc(Cl)c3)c(=O)c2c(O)c1=O	IC50	-	-	ELISA	-	Integrase	HIV-1	<0.01 µM
N[C@@H]1CN(c2c(F)cc3c(=O)c(C(=O)O)cn([C@@H]4C[C@@H]4F)c3c2Cl)CC12CC2	IC50	J24 (quinolone- penicillin-sensitive)	-	-	-	Topoisomerase IV	Streptococcus pneumoniae	1.88 µg/mL
Cc1noc(C)c1-n1sc(=O)n(-c2ccc(F)cc2)c1=O	IC50	H37Rv	-	HPLC	-	Alanine racemase	Mycobacterium tuberculosis	0.07 µM
COc1ccc2cc(O)c(C(=O)NCc3ccc(Cl)cc3)cc2c1	IC50	-	-	-	-	HCMV DNA polymerase	Human cytomegalovirus	>100 µM
Oc1cccc(O)c1O	IC50	-	-	flow cytometry	-	CD4	-	4–20 µM
O=c1c2[nH]cnc2ncn1CCNCCP(=O)(O)O	IC50	-	-	absorbance	-	Hypoxanthine-guanine-xanthine phosphoribosyltransferase	Plasmodium falciparum	>200 µM
O=C(O)c1ccccc1	Ki	Can2	-	-	-	Beta-carbonic anhydrase	Cryptococcus neoformans	1267 µM
O=C(O)c1cc(O)c(O)c(O)c1	inhibition	-	-	flow cytometry	100 µg/mL	CD4	-	11%

Repeating the first 9 entries:

smiles	read-out	strain	changes	method	dose	target	organism	value
Fc1ccc(-c2cncc(NCc3ccco3)n2)c(F)c1	inhibition	-	-	-	1 µM	UL97 kinase	Cytomegalovirus	<50%
Nc1nc(N)c(CCCOc2ccc(NC(=O)c3cccc(S(=O)(=O)F)c3)cc2Cl)c(N)n1	IC50	TYPE II	-	-	-	Dihydrofolate reductase	Cryptosporidium parvum	20 µM
O=C(NCc1cccc(Cl)c1)c1cc2ccccc2cc1O	IC50	-	-	-	-	HCMV DNA polymerase	Human cytomegalovirus	>100 µM
CCCOc1ncnc2c1ncn2[C@@H]1O[C@H](CO)[C@@H](O)[C@@H]1O	Ki	OKA	-	-	-	Thymidine kinase	Varicella zoster virus	1200 µM
O=C(Nc1cccc(Cl)c1)c1cc2ccccc2cc1O	IC50	-	-	-	-	HCMV DNA polymerase	Human cytomegalovirus	>100 µM
C=C1/C=C(\C)[C@H](CC)OC(=O)[C@H](C)C(=O)C(O)(CO)C/C(OC)=C/[C@@H](C)C1	IC50	-	-	-	-	Inositol phosphorylceramide synthase	Cryptococcus neoformans	0.0038 µM
CC(=O)N[C@@H]1[C@@H](N=C(N)N)C=C(C(=O)O)O[C@H]1C(=O)C(C)C	IC50	AICHI N2	-	fluorescence	-	Influenza virus sialidases	Influenza A virus	0.025 µM
CN1CCN(c2ccc3c(=O)c(C(=O)O)cn(C4CC4)c3c2)CC1	IC50	-	-	-	-	DNA gyrase	Streptococcus pneumoniae	186 µg/mL
Cc1onc(-c2ccccc2Cl)c1C(=O)N[C@@H]1C(=O)N2[C@@H]1SC(C)(C)[C@@H]2C(=O)O	IC50	TB3	-	-	-	Beta-lactamase	Mycobacterium tuberculosis	1 µg/mL

Neighbouring rows are from separate reports. Two numbers with a dash give a range or band. An empty or dashed field is not shown. ICn: concentration for n% inhibition.